Compound potency records, mixed from different reports. Data source: NIAID ChemDB in PubChem.

All rows: tests in culture; organism: Herpes simplex virus 1

Lines come from different laboratories, so protocols vary. Blank or dashed fields: not listed here. ECn is the concentration giving n% inhibition of infection, replication or growth.

structure,method,read-out,cells,strain or isolate,value
O=c1[nH]c(=O)n([C@@H]2O[C@H](CO)[C@@H](O)[C@@H]2O)cc1/C=C/Br,-,EC50,E6SM,KOS,1 µM
COCc1cn([C@@H]2C[C@H](CO)[C@@H](O)C2)c(=O)nc1NC(C)=O,plaque count,EC50,A549,McIntyre,4.79 µM
Cc1c(Cl)nc2cc(N(C)C)ccc2c1Cl,plaque count,EC50,KB,-,2 µg/mL
Nc1ncnc2c1ncn2[C@H]1C[C@]12C[C@H]2CO,-,EC50,VERO,-,>50 µM
Nc1ncnc2c1c(Cl)cn2COC(CO)CO,virus yield,EC90,HFF,-,17 µM
Cc1ccnc2cc(N)ccc12,plaque count,EC50,KB,-,2 µg/mL
CCCC(=O)Nc1nc(=O)n([C@@H]2C[C@H](CO)[C@@H](O)C2)cc1COC,plaque count,EC50,A549,McIntyre,0.87 µM
Cc1cn([C@@H]2O[C@H](CO)[C@@H](O)[C@@H]2F)c(=O)[nH]c1=O,plaque count,EC50,VERO,F,0.3 µM
O=c1[nH]c(=O)n([C@H]2C[C@H](O)[C@@H](CO)O2)cc1/C=C\Cl,cytopathic effect,EC50,PRK,VMW1837 (TK-),>200 µg/mL
Nc1ncnc2c1c(I)cn2COCCO,virus yield,EC90,HFF,-,>100 µM
Nc1nc(NC2CC2)c2ncn(C=C3CC3CO)c2n1,plaque count,EC50,VERO,-,31 µM
COCc1cn([C@@H]2C[C@H](CO)[C@@H](O)C2)c(=O)nc1NO,plaque count,EC50,A549,McIntyre,1475 µM
CCCC(=O)OCC(COC(=O)CCC)OCn1cnc2c(=O)[nH]c(N)nc21,plaque count,EC50,HFF,-,2.4 µg/mL
CCO[C@@H]1[C@@H](OCC)[C@H](Cc2ccccc2)O[C@@H]2CO[C@@H](c3ccc(Cl)cc3)O[C@@H]12,cytopathic effect,EC50,HFF,-,3 µg/mL
Nc1ncnc2c1c(I)cn2COC(CO)CO,plaque count,EC50,HFF,-,>100 µM
CC(=O)OCC(CO)OCn1cnc2c(=O)[nH]c(N)nc21,plaque count,EC50,HFF,-,1.5 µg/mL
Nc1ncnc2c1ncn2[C@@H]1C=C(CO)[C@@H](O)[C@H]1O,cytopathic effect,EC50,E6SM,B2006 (TK-),20 µg/mL
Nc1nc(F)nc2c1ncn2[C@H]1S[C@H](CO)[C@@H](O)[C@@H]1F,cytopathic effect,EC50,-,VR,>27 µg/mL
CCN(CC)CCCOc1c2occc2cc2ccc(=O)oc12,plaque count,EC50,VERO,Clinical isolate,24.5 µg/mL
CO[C@H](CO)[C@@H](O)CCn1cnc2c(N)ncnc21,cytopathic effect,EC50,E6SM,B2006 (TK-),>400 µg/mL
Nc1ncn([C@H]2CC[C@H](CO)O2)c(=O)n1,-,EC50,-,-,>100 µM
Nc1ncnc2c1ncn2[C@H]1C[C@@H](CO)[C@H](O)[C@@H]1O,cytopathic effect,EC50,PRK,-,≥200 µg/mL
CS(=O)(=O)Cc1cn([C@H]2C[C@H](O)[C@@H](CO)O2)c(=O)[nH]c1=O,cytopathic effect,EC50,PRK,KOS McIntyre F,4 µg/mL
Cc1cn([C@@H]2C[C@H](CO)[C@@H](O)C2)c(=O)[nH]c1=O,plaque count,EC50,HFF,-,>10 µg/mL
Nc1ncnc2c1ncn2[C@H]1C[C@]12C[C@@H]2CO,ELISA,EC50,BSC-1,-,>100 µM
Nc1nc2c(ncn2COC(CO)CO)c(=O)[nH]1,plaque count,EC50,VERO,MGH 10,0.5 µM
Nc1ncnc2c1ncn2[C@H]1C[C@@]12C[C@@H]2CO,plaque count,EC50,VERO,-,>50 µM
Nc1nc(=O)n([C@H]2C[C@H](O)[C@@H](CO)O2)cc1/C=C\Cl,cytopathic effect,EC50,PRK,KOS,0.7 µg/mL
Nc1nc2c(ncn2COCCO)c(=O)[nH]1,plaque count,EC50,HFF,-,0.14 µg/mL
Nc1nc2c(ncn2COCCO)c(=O)[nH]1,cytopathic effect,EC50,HFF,15990BW-S (acyclovir-susceptible),0.5 µg/mL
Cc1ccc2ccc(N(C)C)cc2n1,plaque count,EC50,KB,-,9 µg/mL
O=c1[nH]c(=O)n([C@@H]2C[C@H](CO)C[C@H]2CO)cc1I,-,EC50,E6SM,KOS,>100 µg/mL
O=C(CC1CCCCC1)N(O)c1ccc(Cl)cc1,cytopathic effect,EC50,E6SM,KOS,80 µg/mL
Nc1ncnc2c1ncn2[C@H]1C[C@@]12C[C@H]2CO,ELISA,EC50,BSC-1,-,>100 µM
Nc1ncnc2c1ncn2[C@@H]1O[C@H](CO)[C@@H](O)[C@@H]1O,plaque count,EC50,VERO,KOS,26.1 µM
COC(=O)[C@H](C)NP(=O)(OC[C@@H]1C[C@]12C[C@@H]2n1cnc2c(N)ncnc21)Oc1ccccc1,-,EC50,BSC-1,-,7 µM
Cn1cc(C(=O)NCc2ccc(Cl)cc2)c(=O)c2cc(CN3CCOCC3)ccc21,plaque count,EC50,VERO,F,2.3 µM
CNc1ccc2ccc(N(C)C)cc2n1,plaque count,EC50,KB,-,2 µg/mL
Nc1nc2c(ncn2COC(CO)CO)c(=O)[nH]1,plaque count,EC50,HeLa,ICI,0.52 µM
Nc1nc2c(ncn2CCC(COC=O)COC=O)c(=O)[nH]1,plaque count,EC50,VERO,HFEM,5.8 µM
[O-][n+]1onc2ncnc(N3CC[N+]4(CC3)CC[N+]3(CCN(c5ncnc6no[n+]([O-])c56)CC3)CC4)c21,plaque count,EC50,GMK,ANGPR,9.8 µM
O=C(C1CCCCC1)N(O)c1ccc(Cl)cc1,cytopathic effect,EC50,E6SM,KOS,>80 µg/mL
Nc1nc2c(ncn2[C@@H]2C=C[C@H](CO)[C@@H](O)C2)c(=O)[nH]1,-,EC50,-,KOS,0.002 µg/mL
CC[C@H](O)C1=C[C@@H](n2cnc3c(N)ncnc32)[C@H](O)[C@@H]1O,cytopathic effect,EC50,E6SM,KOS,>200 µg/mL
O=c1[nH]c(=O)n([C@H]2O[C@@H](CO)[C@H](O)[C@H]2O)cc1/C=C/Br,-,EC50,-,-,>100 µM
CN(C)c1ccc2ccc(N)nc2c1,plaque count,EC50,KB,-,5 µg/mL
Nc1nc2c(ncn2COC(CO)CO)c(=O)[nH]1,ELISA,EC50,HFF,-,3.5 µM
Cn1cc(C(=O)NCc2ccc(Cl)cc2)c(=O)c2cc(/C=C\CO)cc(F)c21,plaque count,EC50,VERO,F-M1,>20 µM
CN(C)c1cn([C@@H]2C[C@H](CO)[C@@H](O)C2)c(=O)[nH]c1=O,cytopathic effect,EC50,PRK,377,290 µg/mL
O=c1[nH]c(=O)n([C@H]2C[C@H](O)[C@@H](CO)O2)cc1/C=C/Br,-,MIC,-,-,0.005 µg/mL
Nc1ncnc2c1ncn2[C@H]1C[C@]12C[C@H]2CO,ELISA,EC50,BSC-1,-,70 µM
Nc1nc(N)c2ncn([C@@H]3S[C@H](CO)[C@@H](O)[C@@H]3F)c2n1,cytopathic effect,EC50,-,VR,0.0041 µg/mL
CCCCCCCCCCCC(=O)NC(C)(C)C(=O)N1C[C@@H](O)CC1C(=O)N[C@@H](CC(C)C)C(=O)N[C@H](C(=O)N[C@@H](CCC(N)=O)C(=O)N[C@H](CO)CC(C)C)C(C)C,cytopathic effect,EC50,VERO,-,2 µM
OC[C@H]1O[C@@H](c2cc(/C=C/I)c(F)cc2F)C[C@@H]1O,cytopathic effect,EC50,E6SM,KOS ACV-R (TK-),>400 µg/mL
Cc1cn(CC[C@H](O)CCO)c(=O)[nH]c1=O,cytopathic effect,EC50,E6SM,F,>400 µg/mL
[N-]=[N+]=NC(CBr)c1cc([C@H]2C[C@H](O)[C@@H](CO)O2)c(F)cc1F,cytopathic effect,EC50,E6SM,McIntyre,>400 µg/mL
O=c1[nH]cnc2c1ncn2C1C[C@H](CO)[C@@H](CO)C1,-,EC50,E6SM,KOS,>100 µg/mL
OC[C@H]1O[C@@H](c2cc(C#CI)c(F)cc2F)C[C@@H]1O,cytopathic effect,EC50,E6SM,McIntyre,>400 µg/mL
O=C(Cc1ccccc1)NCCCCNC(=O)Cc1ccccc1,plaque count,EC50,-,-,>20 µg/mL
O=C1c2ccccc2C(=O)N1Cc1cc2c(cc1O)Sc1ccccc1N2C(Nc1ccccc1)c1ccc(-c2ccccc2)cc1,cytopathic effect,EC50,-,753166,7.8 µg/mL
Nc1nc(=O)n([C@H]2C[C@H](O)[C@@H](CO)O2)cc1/C=C/Br,plaque count,EC50,A549,McIntyre,0.61 µM
CO[C@H](CO)[C@@H](O)CCn1cc(C)c(=O)[nH]c1=O,cytopathic effect,EC50,E6SM,VMW1837 (TK-),>400 µg/mL
COC(=O)[C@H](C)NP(=O)(OC[C@H]1C/C1=C/n1cnc2c(OC)nc(N)nc21)Oc1ccccc1,plaque count,EC50,VERO,-,0.6 µM
CCCCCCCCCCCCCC(=O)NC(C)(C)C(=O)N1CCCC1C(=O)N[C@@H](CC(C)C)C(=O)N[C@H](C(=O)N[C@@H](CCC(N)=O)C(=O)N[C@H](CO)CC(C)C)C(C)C,cytopathic effect,EC50,VERO,-,2.2 µM
Nc1nc2c(ncn2[C@H]2C[C@]23C[C@H]3CO)c(=O)[nH]1,ELISA,EC50,BSC-1,-,>100 µM
COc1cccc2c1C(=O)c1c(O)c3c(c(O)c1C2=O)C[C@@](O)(C(C)=O)C[C@@H]3O[C@H]1C[C@H](N)[C@H](O)[C@H](C)O1,virus yield,EC50,VERO,-,>1 µM
COC(=O)[C@H](C)NP(=O)(OCC1C/C1=C/n1cnc2c(=O)[nH]c(N)nc21)Oc1ccccc1,plaque count,EC50,VERO,-,>100 µM
CN(C)c1ccc2ccc(N)cc2n1,plaque count,EC50,KB,-,3 µg/mL
O=c1[nH]c(=O)n([C@H]2S[C@H](CO)[C@@H](O)[C@@H]2F)cc1I,cytopathic effect,EC50,-,VR,>27 µg/mL

A second listing of 10 rows from above:

| structure | method | read-out | cells | strain or isolate | value |
|---|---|---|---|---|---|
| CC[C@H](O)C1=C[C@@H](n2cnc3c(N)ncnc32)[C@H](O)[C@@H]1O | cytopathic effect | EC50 | E6SM | KOS | >200 µg/mL |
| COCc1cn([C@@H]2C[C@H](CO)[C@@H](O)C2)c(=O)nc1NC(C)=O | plaque count | EC50 | A549 | McIntyre | 4.79 µM |
| CN(C)c1ccc2ccc(N)nc2c1 | plaque count | EC50 | KB | - | 5 µg/mL |
| COC(=O)[C@H](C)NP(=O)(OC[C@@H]1C[C@]12C[C@@H]2n1cnc2c(N)ncnc21)Oc1ccccc1 | - | EC50 | BSC-1 | - | 7 µM |
| [O-][n+]1onc2ncnc(N3CC[N+]4(CC3)CC[N+]3(CCN(c5ncnc6no[n+]([O-])c56)CC3)CC4)c21 | plaque count | EC50 | GMK | ANGPR | 9.8 µM |
| O=c1[nH]c(=O)n([C@@H]2O[C@H](CO)[C@@H](O)[C@@H]2O)cc1/C=C/Br | - | EC50 | E6SM | KOS | 1 µM |
| Cn1cc(C(=O)NCc2ccc(Cl)cc2)c(=O)c2cc(/C=C\CO)cc(F)c21 | plaque count | EC50 | VERO | F-M1 | >20 µM |
| O=c1[nH]c(=O)n([C@H]2S[C@H](CO)[C@@H](O)[C@@H]2F)cc1I | cytopathic effect | EC50 | - | VR | >27 µg/mL |
| CNc1ccc2ccc(N(C)C)cc2n1 | plaque count | EC50 | KB | - | 2 µg/mL |
| CCCCCCCCCCCCCC(=O)NC(C)(C)C(=O)N1CCCC1C(=O)N[C@@H](CC(C)C)C(=O)N[C@H](C(=O)N[C@@H](CCC(N)=O)C(=O)N[C@H](CO)CC(C)C)C(C)C | cytopathic effect | EC50 | VERO | - | 2.2 µM |